Laboratory results reported in paper PMC12622350.
Construct, isoform or probe ends are uncertain for at least one entry. At least one verdict rests on a figure or table, not on a statement of the authors. Tags and fusion partners may be left off the protein sequences shown.

Target: T1, NikR (Helicobacter pylori 26695) (UniProt O25896)
T1 sequence (looked up): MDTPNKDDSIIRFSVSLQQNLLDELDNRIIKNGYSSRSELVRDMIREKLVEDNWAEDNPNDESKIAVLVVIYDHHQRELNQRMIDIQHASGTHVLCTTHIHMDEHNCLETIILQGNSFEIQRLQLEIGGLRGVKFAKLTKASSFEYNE
Test: EMSA
Conditions: 5 mM H2O2; recombinant protein; residues 1-148; probe letters rebuilt from the primers and the genome

| Sequence | binding result |
| --- | --- |
| TAAGCTTTTTTCTTTTTTTTTGATTTAATACTAGGTATAATTTTAATTCCACCTAACAAGGAAAAGCTATGAAAGTAACACAAGGCATTGCTAACGACTTTTTTGCCCTAACAAACACGA (double strand) [Probe-flgR 2] | binds |
| TAGCAATGTTTTGATTTACTAAGATTAACAGAAGCGTTCATTAACTAATTATTATTTAAAATGAATTAGTGTTATATCTTTGAAGCGCTATAAAATCGTTATTAGAAGTGCGTTTAATAC (double strand) [OPhp0073] | binds |
| TTGGGTTGATTTAACTCAAGCAAATTTTCTTCAATCCTAACAAATTTGGCTGCAAATTAAAAAATTTAAGCTTTTTTCTTTTTTTTTGATTTAATACTAGGTATAATTTTAATTCCACCT (double strand) [Probe-flgR 1] | binds |
